PubChem BioAssay AID504761 | Drosophila RNAi Screening Center – 2011
The screen tested about 22,000 reagents; this is a random part of those that have a named target and a result. Over the whole deposit, 116 (0.52%) are marked active. 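Calls depend on retest data that are not deposited; infection was ranked per plate without normalising between plates; the unit of the infection score is not given.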 Raw values vary from plate to plate and are shown uncorrected. Entries without a mark were called inactive. Names joined by + are all predicted targets of the reagent. Not all columns of the deposit are shown. Reagent sequences are not shown. Not given: the amount of reagent, the time to read-out.

- Assay: 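Insect host genes that dengue virus relies on to spread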 (primary screen)
- System: D.Mel-2 cells from Drosophila
- Reagent: long dsRNA against Drosophila genes
- Conditions: infection with dengue virus type 2; dose and infection time not stated
- Detection: 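Per well on two replicate plates, imaging gave the percent of cells positive for viral envelope protein, ranked by infection, and a nuclear count of cells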
- Direction: infection score: higher = more virus-infected cells; cell count: higher = more cells in the well
- Hit rule: 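Very low infection ranking in both replicate wells (chance probability at most 0.065), then a retest showing infection dropped 1.5-fold or more at p below 0.05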
- Meaning of the calls: active = confirmed: knock-down lowers infection; inactive = not picked or not confirmed

CG8349 (GeneID 34124) [DRSC03083] showed infection score, replicate 1 = 4.49; cell count, replicate 1 = 5496.
hbt (GeneID 34738) [DRSC23270] scored infection score, replicate 1 = 2.29; cell count, replicate 1 = 6189.
Scgdelta (GeneID 31129) [DRSC18544] scored infection score, replicate 1 = 2.78; cell count, replicate 1 = 720.
After knock-down of Adh + Adhr [DRSC01862], the record shows infection score, replicate 1 = 25.5; cell count, replicate 1 = 5756.
Adh + Adhr [DRSC01863] gave infection score, replicate 1 = 5.25; cell count, replicate 1 = 5957.
Depletion of RpL9 (GeneID 34526) [DRSC03418] came out at: infection score, replicate 1 = 4.83; cell count, replicate 1 = 3646.
Against CG4650 (GeneID 34859) [DRSC02767] the deposit lists infection score, replicate 1 = 4.2; cell count, replicate 1 = 5828.
Against Gr64b (GeneID 117480) [DRSC08444], the entry reads infection score, replicate 1 = 2.81; cell count, replicate 1 = 6151.
Against Or22c (GeneID 33381) [DRSC00766] the deposit lists infection score, replicate 1 = 15.8; cell count, replicate 1 = 6610.
For Or22c (GeneID 33381) [DRSC26292] the deposit lists infection score, replicate 1 = 20.6; cell count, replicate 1 = 5838.
With knock-down of Naa40 (GeneID 43500) [DRSC16265], the record shows infection score, replicate 1 = 19; cell count, replicate 1 = 2271.
Knock-down of lncRNA:CR32385 (GeneID 3772463) [DRSC22966] gave: infection score, replicate 1 = 1.75; cell count, replicate 1 = 6241.
Against cnk (GeneID 36952) [DRSC07595], the values are infection score, replicate 1 = 16.9; cell count, replicate 1 = 5498.
Depletion of Spn43Ad (GeneID 35639) [DRSC06770] came out at: infection score, replicate 1 = 4.1; cell count, replicate 1 = 6419.
With knock-down of RpL23A (GeneID 38208) [DRSC08694] the results were infection score, replicate 1 = 6.78; cell count, replicate 1 = 1917.
Silencing of RpL23A (GeneID 38208) [DRSC22035] came out at: infection score, replicate 1 = 4.54; cell count, replicate 1 = 6235.
Knock-down of RpL23A (GeneID 38208) [DRSC25828] gave: infection score, replicate 1 = 3.31; cell count, replicate 1 = 4406.
CG12898 (GeneID 36096) [DRSC06213] scored infection score, replicate 1 = 15.3; cell count, replicate 1 = 6056.
After knock-down of rost (GeneID 34222) [DRSC03603], the screen gave infection score, replicate 1 = 17.7; cell count, replicate 1 = 4797.
rost (GeneID 34222) [DRSC28296] scored infection score, replicate 1 = 9.18; cell count, replicate 1 = 2974.
Knock-down of Cpsf100 (GeneID 43426) [DRSC14146] came out at: infection score, replicate 1 = 1.14; cell count, replicate 1 = 5533.
Silencing of Cpsf100 (GeneID 43426) [DRSC28396] came out at: infection score, replicate 1 = 2.62; cell count, replicate 1 = 1183.
For ng1 (GeneID 31300) [DRSC18802], the values are infection score, replicate 1 = 4.42; cell count, replicate 1 = 6465.
For CG15012 (GeneID 38529) [DRSC08465] the deposit lists infection score, replicate 1 = 5.48; cell count, replicate 1 = 6020.
Depletion of fzo (GeneID 42745) [DRSC16954] resulted in: infection score, replicate 1 = 2.84; cell count, replicate 1 = 6582.
Silencing of myd (GeneID 42303) [DRSC15512] resulted in: infection score, replicate 1 = 2.69; cell count, replicate 1 = 6737.
After knock-down of olf413 (GeneID 40453) [DRSC11543] the results were infection score, replicate 1 = 2.59; cell count, replicate 1 = 5713.
For olf413 (GeneID 40453) [DRSC11679] the deposit lists infection score, replicate 1 = 3.18; cell count, replicate 1 = 6486.
Silencing of olf413 (GeneID 40453) [DRSC11721] gave: infection score, replicate 1 = 11.3; cell count, replicate 1 = 6539.
With knock-down of olf413 (GeneID 40453) [DRSC11833] the results were infection score, replicate 1 = 0.69; cell count, replicate 1 = 6381.
